Experimental data as given in patent US10233179B2, “Thiazoles and uses thereof” (AbbVie Inc., priority 2013, dated 2019).

System: RSV (Group A, Long Strain)
Assay: Antiviral cytopathic effect (CPE) protection assay, MTT readout
Assay type: cell-based, human respiratory syncytial virus (RSV)
Set-up: key: NW: No window
Conditions: ratio of MTT TD50 to RSV EC50; NW = no window
Description: HEp-2 cells and RSV (Group A, Long Strain) were obtained from the American Type Culture Collection (Manassas, Va.).
A cytopathic effect (CPE) protection assay was performed to determine the ability of a compound to protect the cells from viral infection and thus the CPE induced by viral infection. 96-Well plates were first seeded with 3×10^3 HEp-2 cells per well in Dulbecco's modified Eagle's medium (DMEM) containing 10% fetal bovine serum (FBS). One day after the cells were seeded, they were preincubated with serial dilutions of compounds prepared in 100 μL assay medium (DMEM mixed with F12 medium at a 1:1 ratio, supplemented with 2% FBS and 1 mM sodium pyruvate) for 1 hour at 37° C. 100 μL of assay medium containing 0.2 multiplicity of infection (MOI) of RSV was then added to each well of cells. In addition to wells containing infected cells incubated with compounds, each plate also contained replicates of two kinds of controls: (1) Virus control contained cells infected with 0.2 MOI of RSV in assay medium, (2) Uninfected cell control contained cells incubated with assay medium only. After 4 days of incubation at 37° C., the viability of cells was assessed using MTT (Thiazolyl blue tetrazolium bromide, Sigma). A stock solution of MTT, at a concentration of 4 mg/mL in phosphate-buffered saline, was added to all wells at 25 μL per well. Plates were further incubated for 4 hours, and each well was then treated with 50 μL of a solution containing 20% sodium dodecyl sulfate (SDS) and 0.02 N HCl. After an overnight incubation, the plates were measured on a BioTek® microtiter plate reader at wavelengths of 570 nm and 650 nm. The MTT detection is based on the fact that viable (uninfected) cells can reduce the tetrazolium salts into colored formazan products, which can then be quantitated by spectrometry. Based on the spectrometric absorbance of each sample, the percent of protection from CPE, which is an indicator of protection from viral infection, can be calculated for each compound and the 50% effective concentrations (EC50) can be calculated using a nonlinear regression curve fitting equation provided by the GraphPad Prism® 4 software.
Compounds were tested to determine both their antiviral and toxicity to determine their therapeutic window. Determination of the EC50 and TD50 of these active compounds were repeated one additional time to confirm the window.

| Structure (SMILES) | Window (TD50/EC50) |
| --- | --- |
| Cc1c(C(C)N(Cc2cccn2-c2nccs2)Cc2cccn2-c2nccs2)cnn1-c1cccc(F)c1 (racemic) [Example 1, 1-[1-(3-fluorophenyl)-5-methyl-1H-pyrazol-4-yl]-N,N-bis{[1-(1,3-thiazol-2-yl)-1H-pyrrol-2-yl]methyl}ethanamine] | 99 |
| Cc1c([C@H](C)N(Cc2cccn2-c2nccs2)Cc2cccn2-c2nccs2)cnn1-c1cccc(F)c1 [Example 2, (1S)-1-[1-(3-fluorophenyl)-5-methyl-1H-pyrazol-4-yl]-N,N-bis{[1-(1,3-thiazol-2-yl)-1H-pyrrol-2-yl]methyl}ethanamine] | >450 |
| Cc1c([C@@H](C)N(Cc2cccn2-c2nccs2)Cc2cccn2-c2nccs2)cnn1-c1cccc(F)c1 [Example 3, (1R)-1-[1-(3-fluorophenyl)-5-methyl-1H-pyrazol-4-yl]-N,N-bis{[1-(1,3-thiazol-2-yl)-1H-pyrrol-2-yl]methyl}ethanamine] | >33 |
| COc1ccccc1CN(Cc1cccn1-c1nccs1)C(C)c1cnn(-c2cccc(F)c2)c1C (stereo not drawn) [Example 4, 1-[1-(3-fluorophenyl)-5-methyl-1H-pyrazol-4-yl]-N-(2-methoxybenzyl)-N-{[1-(1,3-thiazol-2-yl)-1H-pyrrol-2-yl]methyl}ethanamine] | NW |
| Cc1c(C(C)N(Cc2ccc(Cl)cc2-c2ccnc(C(F)(F)F)n2)Cc2cccn2-c2nccs2)cnn1-c1cccc(F)c1 (stereo not drawn) [Example 5, N-{4-chloro-2-[2-(trifluoromethyl)pyrimidin-4-yl]benzyl}-1-[1-(3-fluorophenyl)-5-methyl-1H-pyrazol-4-yl]-N-{[1-(1,3-thiazol-2-yl)-1H-pyrrol-2-yl]methyl}ethanamine] | NW |
| Cc1cccc(C)c1-n1ccc(CN(Cc2cccn2-c2nccs2)C(C)c2cnn(-c3cccc(F)c3)c2C)c1 (stereo not drawn) [Example 6, N-{[1-(2,6-dimethylphenyl)-1H-pyrrol-3-yl]methyl}-1-[1-(3-fluorophenyl)-5-methyl-1H-pyrazol-4-yl]-N-{[1-(1,3-thiazol-2-yl)-1H-pyrrol-2-yl]methyl}ethanamine] | NW |
| Cc1c(C(C)N(Cc2ncc(-c3ccccc3)n2C)Cc2ncc(-c3ccccc3)n2C)cnn1-c1cccc(F)c1 (stereo not drawn) [Example 7, 1-[1-(3-fluorophenyl)-5-methyl-1H-pyrazol-4-yl]-N,N-bis[(1-methyl-5-phenyl-1H-imidazol-2-yl)methyl]ethanamine] | 16 |
| Cn1nccc1N(Cc1cccn1-c1nncs1)Cc1cccn1-c1nncs1 [Example 9, 1-methyl-N,N-bis{[1-(1,3,4-thiadiazol-2-yl)-1H-pyrrol-2-yl]methyl}-1H-pyrazol-5-amine] | >6.5 |
| c1ccc(CN(Cc2cccn2-c2nncs2)Cc2cccn2-c2nncs2)cc1 [Example 10, 1-phenyl-N,N-bis{[1-(1,3,4-thiadiazol-2-yl)-1H-pyrrol-2-yl]methyl}methanamine] | 187 |
| c1cc(CN(Cc2cccn2-c2nncs2)CC2C[C@H]3CC[C@@H]2C3)n(-c2nncs2)c1 (stereo partly drawn) [Example 11, 1-[(1R,4S)-bicyclo[2.2.1]hept-2-yl]-N,N-bis{[1-(1,3,4-thiadiazol-2-yl)-1H-pyrrol-2-yl]methyl}methanamine] | 46 |
| Cc1ccccc1CN(Cc1cccn1-c1nncs1)Cc1cccn1-c1nncs1 [Example 12, 1-(2-methylphenyl)-N,N-bis{[1-(1,3,4-thiadiazol-2-yl)-1H-pyrrol-2-yl]methyl}methanamine] | >157 |
| C[C@H](c1ccc(F)cc1)N(Cc1cccn1-c1nncs1)Cc1cccn1-c1nncs1 [Example 13, (1R)-1-(4-fluorophenyl)-N,N-bis{[1-(1,3,4-thiadiazol-2-yl)-1H-pyrrol-2-yl]methyl}ethanamine] | 7 |
| Clc1cnc(CN(Cc2cccn2-c2nncs2)Cc2cccn2-c2nncs2)c(Cl)c1 [Example 14, 1-(3,5-dichloropyridin-2-yl)-N,N-bis{[1-(1,3,4-thiadiazol-2-yl)-1H-pyrrol-2-yl]methyl}methanamine] | 19 |
| Fc1ccccc1CN(Cc1cccn1-c1nncs1)Cc1cccn1-c1nncs1 [Example 15, 1-(2-fluorophenyl)-N,N-bis{[1-(1,3,4-thiadiazol-2-yl)-1H-pyrrol-2-yl]methyl}methanamine] | 547 |
| FC(F)(F)c1cccc(CN(Cc2cccn2-c2nncs2)Cc2cccn2-c2nncs2)c1 [Example 16, 1-[1-(1,3,4-thiadiazol-2-yl)-1H-pyrrol-2-yl]-N-{[1-(1,3,4-thiadiazol-2-yl)-1H-pyrrol-2-yl]methyl}-N-[3-(trifluoromethyl)benzyl]methanamine] | 14 |
| CC(c1ccc(Cl)c(Cl)c1)N(Cc1cccn1-c1nncs1)Cc1cccn1-c1nncs1 (stereo not drawn) [Example 17, 1-(3,4-dichlorophenyl)-N,N-bis{[1-(1,3,4-thiadiazol-2-yl)-1H-pyrrol-2-yl]methyl}ethanamine] | >2 |
| Clc1ccccc1CN(Cc1cccn1-c1nncs1)Cc1cccn1-c1nncs1 [Example 18, 1-(2-chlorophenyl)-N,N-bis{[1-(1,3,4-thiadiazol-2-yl)-1H-pyrrol-2-yl]methyl}methanamine] | >512 |
| C[C@H](c1ccccc1Cl)N(Cc1cccn1-c1nncs1)Cc1cccn1-c1nncs1 [Example 19, (1R)-1-(2-chlorophenyl)-N,N-bis{[1-(1,3,4-thiadiazol-2-yl)-1H-pyrrol-2-yl]methyl}ethanamine] | >11 |
| C[C@@H](c1ccccc1Cl)N(Cc1cccn1-c1nncs1)Cc1cccn1-c1nncs1 [Example 20, (1S)-1-(2-chlorophenyl)-N,N-bis{[1-(1,3,4-thiadiazol-2-yl)-1H-pyrrol-2-yl]methyl}ethanamine] | >88 |
| c1ccc(C2(CCN(Cc3cccn3-c3nncs3)Cc3cccn3-c3nncs3)CC2)nc1 [Example 21, 2-[1-(pyridin-2-yl)cyclopropyl]-N,N-bis{[1-(1,3,4-thiadiazol-2-yl)-1H-pyrrol-2-yl]methyl}ethanamine] | >518 |
| c1ccc(N(Cc2cccn2-c2nncs2)Cc2cccn2-c2nncs2)cc1 [Example 22, N,N-bis{[1-(1,3,4-thiadiazol-2-yl)-1H-pyrrol-2-yl]methyl}aniline] | >1.1 |
| FC1(F)CCC(CN(Cc2cccn2-c2nncs2)Cc2cccn2-c2nncs2)CC1 [Example 23, 1-(4,4-difluorocyclohexyl)-N,N-bis{[1-(1,3,4-thiadiazol-2-yl)-1H-pyrrol-2-yl]methyl}methanamine] | >41 |
| c1cncc(C2(CCN(Cc3cccn3-c3nncs3)Cc3cccn3-c3nncs3)CC2)c1 [Example 24, 2-[1-(pyridin-3-yl)cyclopropyl]-N,N-bis{[1-(1,3,4-thiadiazol-2-yl)-1H-pyrrol-2-yl]methyl}ethanamine] | >35 |
| CC(Cc1cccs1)N(Cc1cccn1-c1nncs1)Cc1cccn1-c1nncs1 (stereo not drawn) [Example 25, N,N-bis{[1-(1,3,4-thiadiazol-2-yl)-1H-pyrrol-2-yl]methyl}-1-(thiophen-2-yl)propan-2-amine] | 7.3 |
| c1cncc(C2(CN(Cc3cccn3-c3nncs3)Cc3cccn3-c3nncs3)CC2)c1 [Example 26, 1-[1-(pyridin-3-yl)cyclopropyl]-N,N-bis{[1-(1,3,4-thiadiazol-2-yl)-1H-pyrrol-2-yl]methyl}methanamine] | >94 |
| c1cc(CN(CCC2(c3ccncc3)CC2)Cc2cccn2-c2nncs2)n(-c2nncs2)c1 [Example 27, 2-[1-(pyridin-4-yl)cyclopropyl]-N,N-bis{[1-(1,3,4-thiadiazol-2-yl)-1H-pyrrol-2-yl]methyl}ethanamine] | >40 |
| N#Cc1cc(CN(Cc2cccn2-c2nncs2)Cc2cccn2-c2nncs2)cs1 [Example 28, 4-[(bis{[1-(1,3,4-thiadiazol-2-yl)-1H-pyrrol-2-yl]methyl}amino)methyl]thiophene-2-carbonitrile] | >132 |
| Clc1ccc(CN(Cc2cccn2-c2nccs2)Cc2cccn2-c2nccs2)c(Cl)c1 [Example 29, 1-(2,4-dichlorophenyl)-N,N-bis{[1-(1,3-thiazol-2-yl)-1H-pyrrol-2-yl]methyl}methanamine] | >101 |
| COc1ccc(CN(Cc2cccn2-c2nccs2)Cc2cccn2-c2nccs2)c(OC)c1 [Example 30, 1-(2,4-dimethoxyphenyl)-N,N-bis{[1-(1,3-thiazol-2-yl)-1H-pyrrol-2-yl]methyl}methanamine] | 91 |
| c1ccc(CN(Cc2cccn2-c2nccs2)Cc2cccn2-c2nccs2)cc1 [Example 31, 1-phenyl-N,N-bis{[1-(1,3-thiazol-2-yl)-1H-pyrrol-2-yl]methyl}methanamine] | 48 |
